Data taken from patent publication US20120101098A1, “3,28-DISUBSTITUTED BETULINIC ACID DERIVATIVES AS ANTI-HIV AGENTS” (priority 2009, published 2012).
Values joined by “and” are separate entries in the source; they are usually repeats but may differ in a detail not shown here. Equal values may be shown once.

Experiments:
Format in all cases: cell-based
HIV-1NL4-3 = HIV-1NL4-3 replication inhibition assay in MT-4 lymphocytes (p24 antigen ELISA); conditions: TI = CC50/EC50; HIV-1NL4-3, MT-4 cells
Source text: HIV-1NL4-3 Replication Inhibition Assay in MT-4 Lymphocytes. A previously described HIV-1 infectivity assay was used.^28,33 A 96-well microtiter plate was used to set up the HIV-1NL4-3 replication screening assay. NL4-3 variants at a multiplicity of infection (MOI) of 0.01 were used to infect MT4 cells. Culture supernatants were collected on day 4 post-infection for the p24 antigen capture using an ELISA kit from ZeptoMetrix Corporation (Buffalo, N.Y.).

HIV-1IIIB = HIV-1IIIB replication inhibition assay in MT-2 lymphocytes (p24 antigen ELISA); conditions: TI = CC50/EC50, MT-2 cells
HIV-1 = assay: Example 2 anti-HIV bioassay of C-28 ethylene glycol bevirimat analogs; conditions: Example 2 compounds (Scheme B)

Structure (SMILES) | TI (HIV-1NL4-3) | TI (HIV-1IIIB) | TI (HIV-1)
C=C(C)[C@@H]1CC[C@]2(C(=O)NCCCCCCCC(=O)N[C@@H](CC(C)C)[C@H](O)CC(=O)O)CC[C@]3(C)[C@H](CC[C@@H]4[C@@]5(C)CC[C@H](O)C(C)(C)[C@@H]5CC[C@]43C)[C@@H]12 [Compound 3b, IC9564, reference compound] | >112.4 |  | 
C=C(CO)[C@@H]1CC[C@]2(C(=O)NCCCCCCCC(=O)O)CC[C@]3(C)[C@H](CC[C@@H]4[C@@]5(C)CC[C@H](O)C(C)(C)[C@@H]5CC[C@]43C)[C@@H]12 [Compound 29, N-[3β,30-Dihydroxy-lup-20(29)-en-28-oyl]-8-aminooctanoic acid] |  | 2.8 | 
C=C(COCCN1CCOCC1)[C@@H]1CC[C@]2(C(=O)N[C@@H](CC(C)C)C(=O)O)CC[C@]3(C)[C@H](CC[C@@H]4[C@@]5(C)CC[C@H](O)C(C)(C)[C@@H]5CC[C@]43C)[C@@H]12 [Compound 19, N-[3β-Hydroxy-30-(2′-morpholinoethoxy)-lup-20(29)-en-28-oyl]-leucine] |  | 1.4 | 
C=C(C)[C@@H]1CC[C@]2(C(=O)N[C@@H](CC(C)C)C(=O)O)CC[C@]3(C)[C@H](CC[C@@H]4[C@@]5(C)CC[C@H](NC(=O)CC(C)(C)C(=O)O)C(C)(C)[C@@H]5CC[C@]43C)[C@@H]12 [Compound 36, N′-[3β-(3′,3′-Dimethylsuccinyl)-lup-20(29)-en-28-oyl]-leucine] |  | 2.7 | 
C=C(COCCN1CCOCC1)[C@@H]1CC[C@]2(C(=O)NCCCCCCCC(=O)NC)CC[C@]3(C)[C@H](CC[C@@H]4[C@@]5(C)CC[C@H](O)C(C)(C)[C@@H]5CC[C@]43C)[C@@H]12 [Compound 21] | 250 and >138 | 250 | 261.7
C=C(C)[C@@H]1CC[C@]2(C(=O)N3CCC(CCCC(=O)O)CC3)CC[C@]3(C)[C@H](CC[C@@H]4[C@@]5(C)CC[C@H](OC(=O)CCC(C)(C)C(=O)O)C(C)(C)[C@@H]5CC[C@]43C)[C@@H]12 [Compound 40, N-[3β-O-(4′,4′-Dimethylglutaryl)-lup-20(29)-en-28-oyl]-4-piperidine butyric acid] |  | 145 | 
C=C(C)[C@@H]1CC[C@]2(C(=O)N3CCC(CCCC(=O)NCCCN4CCOCC4)CC3)CC[C@]3(C)[C@H](CC[C@@H]4[C@@]5(C)CC[C@H](OC(=O)CC(C)(C)C(=O)O)C(C)(C)[C@@H]5CC[C@]43C)[C@@H]12 [Compound 48, N′-[N-[3β-O-(3′,3′-Dimethylsuccinyl)-lup-20(29)-en-28-oyl]-4-piperidine-butanoyl]-3-aminopropylmorpholine] | 245.7 | 3,087 | 
C=C(C)[C@@H]1CC[C@]2(C(=O)N3CCC(CCCC(=O)NCCN4CCOCC4)CC3)CC[C@]3(C)[C@H](CC[C@@H]4[C@@]5(C)CC[C@H](OC(=O)CC(C)(C)C(=O)O)C(C)(C)[C@@H]5CC[C@]43C)[C@@H]12 [Compound 47, N′-[N-[3β-O-(3′,3′-Dimethylsuccinyl)-lup-20(29)-en-28-oyl]-4-piperidine-butanoyl]-2-aminoethylmorpholine] | 283.9 | 2,473 | 
C=C(C)[C@@H]1CC[C@]2(C(=O)N3CCC(CCCC(=O)N4CCOCC4)CC3)CC[C@]3(C)[C@H](CC[C@@H]4[C@@]5(C)CC[C@H](OC(=O)CC(C)(C)C(=O)O)C(C)(C)[C@@H]5CC[C@]43C)[C@@H]12 [Compound 46, N′-[N-[3β-O-(3′,3′-Dimethylsuccinyl)-lup-20(29)-en-28-oyl]-4-piperidine-butanoyl]-morpholine] | 121.4 | 1,748 | 
C=C(COCCc1ccc(Cl)cc1)[C@@H]1CC[C@]2(C(=O)N[C@@H](CC(C)C)C(=O)O)CC[C@]3(C)[C@H](CC[C@@H]4[C@@]5(C)CC[C@H](O)C(C)(C)[C@@H]5CC[C@]43C)[C@@H]12 [Compound 17, N-[3β-Hydroxy-30-(4′-chlorophenethoxy)-lup-20(29)-en-28-oyl]-leucine] |  | 1.2 | 
C=C(C)[C@@H]1CC[C@]2(C(=O)N3CCC(CCCC(=O)NC)CC3)CC[C@]3(C)[C@H](CC[C@@H]4[C@@]5(C)CC[C@H](OC(=O)CC(C)(C)C(=O)O)C(C)(C)[C@@H]5CC[C@]43C)[C@@H]12 [Compound 45] | >41.7 | 497 | 
C=C(CBr)[C@@H]1CC[C@]2(C(=O)NCCCCCCCC(=O)O)CC[C@]3(C)[C@H](CC[C@@H]4[C@@]5(C)CC[C@H](O)C(C)(C)[C@@H]5CC[C@]43C)[C@@H]12 [Compound 25, N-[3β-Hydroxy-30-bromo-lup-20(29)-en-28-oyl]-8-aminooctanoic acid] |  | 16.1 | 
C=C(CBr)[C@@H]1CC[C@]2(C(=O)NC(CC(C)C)C(=O)O)CC[C@]3(C)[C@H](CC[C@@H]4[C@@]5(C)CC[C@H](OC(=O)CC(C)(C)C(=O)O)C(C)(C)[C@@H]5CC[C@]43C)[C@@H]12 (stereo partly drawn) [Compound 30, N-[3β-O-(3′,3′-Dimethylsuccinyl)-30-bromo-lup-20(29)-en-28-oyl]-leucine] |  | 3.0×10^3 and 3,022 | 
C=C(C)[C@@H]1CC[C@]2(C(=O)NCCCCCCCC(=O)O)CC[C@]3(C)[C@H](CC[C@@H]4[C@@]5(C)CC[C@H](O)C(C)(C)[C@@H]5CC[C@]43C)[C@@H]12 [Compound 23, N-[3β-Hydroxy-lup-20(29)-en-28-oyl]-8-aminooctanoic acid] |  | 10.1 | 
C=C(COCCN1CCOCC1)[C@@H]1CC[C@]2(C(=O)NCCCCCCCC(=O)O)CC[C@]3(C)[C@H](CC[C@@H]4[C@@]5(C)CC[C@H](O)C(C)(C)[C@@H]5CC[C@]43C)[C@@H]12 [Compound 20, N-[3β-Hydroxy-30-(2′-morpholinoethoxy)-lup-20(29)-en-28-oyl]-8-aminooctanoic acid] |  | 13.8 | 72.9
C=C(C)[C@@H]1CC[C@]2(C(=O)NCCCCCCCNC(C)=O)CC[C@]3(C)[C@H](CC[C@@H]4[C@@]5(C)CC[C@H](O)C(C)(C)[C@@H]5CC[C@]43C)[C@@H]12 [Compound 4, A43-D, reference compound] | > 100 and >150 |  | 
C=C(C)[C@@H]1CC[C@]2(C(=O)N3CCC(CCCC(=O)O)CC3)CC[C@]3(C)[C@H](CC[C@@H]4[C@@]5(C)CC[C@H](OC(=O)CC(C)(C)C(=O)O)C(C)(C)[C@@H]5CC[C@]43C)[C@@H]12 [Compound 39, N-[3β-O-(3′,3′-Dimethylsuccinyl)-lup-20(29)-en-28-oyl]-4-piperidine butyric acid] |  | 1.4×10^3 and 1,389 | 
C=C(C)[C@@H]1CC[C@]2(C(=O)N3CCC(CCCC(=O)O)CC3)CC[C@]3(C)[C@H](CC[C@@H]4[C@@]5(C)CC[C@H](O)C(C)(C)[C@@H]5CC[C@]43C)[C@@H]12 [Compound 38, N-[3β-Hydroxy-lup-20(29)-en-28-oyl]-4-piperidine butyric acid] |  | 1.9 | 
C=C(C)[C@@H]1CC[C@]2(C(=O)O)CC[C@]3(C)[C@H](CC[C@@H]4[C@@]5(C)CC[C@H](OC(=O)CC(C)(C)C(=O)O)C(C)(C)[C@@H]5CC[C@]43C)[C@@H]12 [Compound 2, bevirimat, reference compound] |  | > 3.6×10^3 and 3,636 | 
